Measured values from several laboratories, pooled; numbers as filed in NIAID ChemDB.

All rows: enzyme or target tests; agent: HIV-1; target: Reverse transcriptase; method: RT activity; read-out: inhibition

Conditions beyond the fields shown may differ between rows. Percent inhibition refers to the dose given; in toxicity tests it is the harm to the cells. Blank or dashed fields: not listed here.

| structure | strain | dose | changes | value |
|---|---|---|---|---|
| Cc1cc(Cl)c2c(c1O)C(=O)C=CC2=O |  | 12.5 µg/mL |  | 52% |
| CCN1c2ncc(COc3ccccc3C(=O)OC)cc2C(=O)N(C)c2ccc(Cl)nc21 |  | 1 µM | RT-Y188L | 11% |
| CO[C@H]1/C=C/O[C@@]2(C)Oc3c(C)c(O)c4c(c3C2=O)C(=O)C(SCCOC(=O)CCC(=O)OC[C@H]2O[C@@H](n3cc(C)c(=O)[nH]c3=O)C[C@@H]2N=[N+]=[N-])=C(NC(=O)/C(C)=C\C=C\[C@H](C)[C@@H]2OC(C)(C)O[C@@H]([C@@H](C)[C@H](OC(C)=O)[C@@H]1C)[C@@H]2C)C4=O | IIIB | 300 µM |  | 48% |
| Cc1cc(O)c2c(c1)C(=O)C=CC2=O |  | 12.5 µg/mL |  | 80% |
| C[C@@H]1[C@H](O)[C@@H](C)/C=C/C=C/C=C/C=C/C=C/C=C/C=C/[C@H](O[C@@H]2O[C@H](C)[C@@H](O)[C@H](N)[C@@H]2O)CC2O[C@](O)(CC(O)C(O)CCC(O)CC(O)CC(O)CC(=O)O[C@H]1C)CC(O)C2C(=O)O.O=S(=O)(O)O |  | 200 µg/mL |  | 80% |
| C=CCc1ccc(O)c(-c2ccc(O)c(CC=C)c2)c1 | LAV | 500 µg/mL |  | 33.2% |
| C=C1[C@H]2CCC3C(CCC4[C@@]3(C)CCC[C@@]4(C)C(=O)O)(C2)[C@@H]1OC(C)=O |  | 200 µg/mL |  | 11.8% |
| CCN1c2ncc(CS(=O)(=O)c3ccccc3)cc2C(=O)N(C)c2ccc(Cl)nc21 |  | 1 µM | RT-Y181C | 39% |
| O=C(c1cc2ccccc2[nH]1)N1CCN(C(=O)c2ccco2)CC1 | IIIB | 50 µM |  | 39.4% |
| CO[C@H]1/C=C/O[C@@]2(C)Oc3c(C)c(O)c4c(c3C2=O)C(=O)C(SCCOC(=O)CCC(=O)OC[C@H]2O[C@@H](n3cc(C)c(=O)[nH]c3=O)C[C@@H]2N=[N+]=[N-])=C(NC(=O)/C(C)=C\C=C\[C@H](C)[C@H](O)[C@@H](C)[C@@H](O)[C@@H](C)[C@H](OC(C)=O)[C@@H]1C)C4=O | IIIB | 300 µM |  | 61% |
| C[C@@]12CCC[C@@](C)(C(=O)O)C1CC[C@@]13C[C@H](CCC12)[C@](C)(O)C3 |  | 200 µg/mL |  | 8.2% |
| O=C(c1cc2cc3c(cc2[nH]1)OCO3)N1CCN(C(=O)c2ccco2)CC1 | IIIB | 50 µM |  | 27.7% |
| NC(=O)NC1NC(=O)NC1=O |  | 200 µg/mL |  | 7.7% |
| CCN(CC)C(=O)c1cc2cc3c(cc2[nH]1)OCO3 | IIIB | 50 µM |  | 30.8% |
| Cc1cc(O)c2c(c1)C(=O)C=C(c1c(C)cc(O)c3c1C(=O)C=CC3=O)C2=O |  | 100 µg/mL |  | 0% |
| CO[C@H]1/C=C/O[C@@]2(C)Oc3c(C)c(O)c4c(c3C2=O)C(=O)C(SCCOC(=O)CCCC(=O)OC[C@@H]2O[C@H](n3cc(C)c(=O)[nH]c3=O)C[C@H]2N=[N+]=[N-])=C(NC(=O)/C(C)=C\C=C\[C@H](C)[C@H](O)[C@@H](C)[C@@H](O)[C@@H](C)[C@H](OC(C)=O)[C@@H]1C)C4=O | IIIB | 300 µM |  | 38% |
| O=C(O)CCCC[C@@H]1CCSS1 |  | 70 µg/mL |  | 90% |
| COc1ccccc1N1CCN(C(=O)c2cc3ccccc3[nH]2)CC1 | IIIB | 50 µM |  | 54.7% |
| C[C@@]12CCC[C@@](C)(C(=O)O)C1CCC13C=C(CC[C@H]4C(=O)[C@@]56CCC7[C@@](C)(CCC[C@@]7(C)C(=O)O)C5CC[C@H]4C6)[C@H](CCC12)C3 |  | 200 µg/mL |  | 47.1% |
| Cc1cc(O)c2c(c1Br)C(=O)C=CC2=O |  | 50 µg/mL |  | 51% |
| CCN1c2ncc(COc3ccc(F)cc3)cc2C(=O)N(C)c2ccc(Cl)nc21 |  | 1 µM | RT-Y188L | 2% |
| C=C(CC[C@@H](C)[C@H]1CC[C@@]2(C)C3CCC4C(C)(C)[C@@H](OC(=O)CCCCCCCCCCCCCCC)CC[C@@]45C[C@@]35CC[C@]12C)C(C)(C)O |  | 200 µg/mL |  | 3.1% |